The source of these data is patent US9474793B2 (The United States of America, as represented by the …, priority 2005, dated 2016).

Where a sequence shows no end group, the ends are not given.

The data set in a line: general procedure: Fmoc solid-phase peptide synthesis. To be noted: whole synthesis, reverse phase HPLC.

Take VLYQYVDDV: the “final HPLC purity” value is on record as more than 97%.
